PSTVd stem 15 mutant pool in Nicotiana benthamiana

Reference: Wu et al. 2024, doi:10.1371/journal.ppat.1012142.

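Three N. benthamiana plants were inoculated with the whole mutant pool. Progeny were sequenced from the inoculated region (day 5), the margin of the inoculated leaf (day 10) and systemic leaves (day 12).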

The pool varies stem 15 of the PSTVd intermediate strain in the pattern CUGGAGCGAUNGNNUNNG; wild type is CUGGAGCGAUCGCUUCGG (upper and lower strand joined, each 5' to 3', the first 9 letters being the upper strand).

Values are reads per thousand in the sample; higher means more abundant, 0 means not found. Each site shows the three plants. "Pool" is the share in the plasmid pool used as inoculum, on the same scale. The inoculated region was read from the minus strand, the other sites from the plus strand. IR is the inoculated region, LM the leaf margin, Sys the systemic leaves.

| sequence | pool | IR | LM | Sys |
|---|---|---|---|---|
| AUGGAGCGAUAGGCUACG | 0.0162 | 0 0 0 | 0 0 0 | 0 0 0 |
| AUGGAGCGAUCGCUUGGG | 0.0162 | 0 0 0 | 0 0 0 | 0 0 0 |
| CAGGAGCGAUGGACUGAG | 0.0162 | 0 0 0 | 0 0 0 | 0 0 0 |
| CAGGAGCGAUUGAAUCAG | 0.0162 | 0.0196 0 0 | 0 0 0 | 0 0 0 |
| CUGGAGCAAUCGUUUACG | 0.0162 | 0 0 0 | 0 0 0 | 0 0 0 |
| CUGGAGCGAUAGAAUUGG | 0.824 | 0.411 0.272 0.261 | 0 0.0273 0 | 0 0 0 |
| CUGGAGCGAUAGCAUUUG | 0.776 | 0.254 0.293 0.298 | 0.103 0.0273 0.0159 | 0 0 0 |
| CUGGAGCGAUAGCCUCAG | 1.05 | 0.274 1.01 0.316 | 0.0620 0.0273 0.0159 | 0 0 0 |
| CUGGAGCGAUAGCGUACG | 0.889 | 0.176 0.293 0.391 | 0.0827 0.0273 0.0317 | 0 0 0 |
| CUGGAGCGAUAGCGUUUG | 0.743 | 0.391 0.272 0.465 | 0.0620 0.0545 0.0159 | 0 0 0 |
| CUGGAGCGAUAGGAUGCG | 0.711 | 0.567 0.188 0.372 | 0.0414 0 0.0159 | 0 0 0 |
| CUGGAGCGAUAGGAUUGG | 0.889 | 0.196 0.251 0.428 | 0.0414 0.0273 0.0159 | 0 0 0 |
| CUGGAGCGAUAGGCUAGG | 1.81 | 0.724 1.09 0.986 | 0.103 0.0545 0.0476 | 0 0.0222 0.0199 |
| CUGGAGCGAUAGGCUAUG | 0.792 | 0.235 0.209 0.316 | 0.0827 0.0545 0.0317 | 0 0 0 |
| CUGGAGCGAUAGUAUACG | 0.840 | 0.352 0.251 0.261 | 0.0620 0.0545 0.0159 | 0 0 0 |
| CUGGAGCGAUAGUUUACG | 2.02 | 0.724 0.503 1.04 | 0.0620 0 0.0317 | 0 0 0.0199 |
| CUGGAGCGAUCGAGUGGG | 0.905 | 0.372 0.251 0.149 | 0.0620 0 0.0317 | 0 0 0 |
| CUGGAGCGAUCGAUUACG | 0.921 | 0.294 0.482 0.521 | 0 0.0818 0.0159 | 0 0 0 |
| CUGGAGCGAUCGCAUAUG | 0.905 | 0.352 0.188 0.335 | 0 0.0545 0.0159 | 0 0 0 |
| CUGGAGCGAUCGCCUAGG | 0.921 | 0.548 0.230 0.316 | 0.0827 0.0818 0.0476 | 0 0 0 |
| CUGGAGCGAUCGCGUCGG | 1.12 | 1.21 0.817 1.15 | 0.703 1.04 0.602 | 0.713 0.842 0.857 |
| CUGGAGCGAUCGCGUCUG | 0.857 | 0.254 0.251 0.186 | 0.0620 0.0818 0 | 0.0198 0 0 |
| CUGGAGCGAUCGCGUGAG | 1.18 | 0.391 0.272 0.465 | 0 0.0273 0 | 0 0 0 |
| CUGGAGCGAUCGGCUAGG | 1.47 | 1.35 1.28 1.12 | 0.0827 0.0273 0.0159 | 0 0 0.0199 |
| CUGGAGCGAUCGUAUGUG | 0.582 | 0.215 0.209 0.261 | 0.0414 0 0 | 0 0 0 |
| CUGGAGCGAUGGACUUUG | 1.10 | 0.274 1.11 0.372 | 0 0.0273 0.0159 | 0 0 0 |
| CUGGAGCGAUGGAGUCCG | 1.42 | 1.31 0.984 1.32 | 0.0414 0.0273 0.0634 | 0 0.0222 0.0199 |
| CUGGAGCGAUGGAGUGAG | 0.776 | 0.235 0.188 0.391 | 0 0 0 | 0 0 0 |
| CUGGAGCGAUGGAGUUGG | 0.711 | 0.274 0.335 0.223 | 0.0620 0 0.0159 | 0 0 0 |
| CUGGAGCGAUGGCAUGGG | 0.582 | 0.254 0.147 0.335 | 0.103 0 0 | 0 0 0 |
| CUGGAGCGAUGGCCUUAG | 0.905 | 3.62 1.97 1.58 | 0.558 0 0.935 | 0.772 0 0 |
| CUGGAGCGAUGGCGUGAG | 1.03 | 0.215 0.272 0.205 | 0.0207 0.0273 0.0159 | 0 0 0 |
| CUGGAGCGAUGGCGUUGG | 0.808 | 0.274 0.147 0.484 | 0.124 0.0273 0.0476 | 0 0 0 |
| CUGGAGCGAUGGGGUCAG | 0.986 | 0.333 0.293 0.186 | 0.0620 0.0273 0.0317 | 0 0 0 |
| CUGGAGCGAUGGGGUGUG | 0.970 | 0.274 0.251 0.223 | 0.0620 0.0273 0 | 0 0 0 |
| CUGGAGCGAUGGUCUAAG | 1.03 | 1.68 1.15 1.73 | 0.641 0.627 0.777 | 0.851 0.554 0 |
| CUGGAGCGAUGGUCUACG | 0.824 | 0.391 0.293 0.316 | 0.0827 0.0545 0.0317 | 0 0 0 |
| CUGGAGCGAUGGUCUUAG | 1.13 | 2.29 0.984 1.60 | 0.744 0.409 0.919 | 0.832 0.598 0.379 |
| CUGGAGCGAUGGUGUUGG | 1.00 | 0.372 0.293 0.316 | 0.0620 0.0818 0.0317 | 0 0 0 |
| CUGGAGCGAUGGUUUCGG | 0.776 | 0.313 0.314 0.223 | 0.124 0.0545 0 | 0 0 0 |
| CUGGAGCGAUGGUUUGCG | 1.70 | 0.959 1.21 1.23 | 0 0.0545 0.0159 | 0 0 0.0199 |
| CUGGAGCGAUGGUUUUCG | 0.840 | 0.313 0.230 0.279 | 0.0207 0.0273 0 | 0 0 0 |
| CUGGAGCGAUUGAAUAGG | 0.792 | 0.294 0.272 0.372 | 0.0207 0 0.0317 | 0 0 0 |
| CUGGAGCGAUUGACUAAG | 0.970 | 2.33 1.09 1.56 | 0.538 0 0.761 | 0.733 0.487 0.0199 |
| CUGGAGCGAUUGAGUCAG | 1.10 | 0.333 1.13 0.205 | 0 0 0.0159 | 0 0 0 |
| CUGGAGCGAUUGCAUAUG | 1.08 | 0.763 0.335 0.391 | 0.103 0.0273 0 | 0 0 0 |
| CUGGAGCGAUUGCCUUAG | 0.840 | 3.84 1.95 2.59 | 1.18 0.927 1.65 | 1.58 1.24 0.857 |
| CUGGAGCGAUUGGAUACG | 0.905 | 0.372 0.251 0.298 | 0.0620 0 0 | 0 0 0 |
| CUGGAGCGAUUGGAUGAG | 0.743 | 0.313 0.188 0.261 | 0.0620 0.0273 0.0159 | 0 0 0 |
| CUGGAGCGAUUGGCUAAG | 0.776 | 1.98 0.963 1.38 | 0.0827 0 0.0159 | 0 0 0 |
| CUGGAGCGAUUGGCUACG | 0.986 | 0.352 0.272 0.354 | 0.0207 0.0545 0.0317 | 0 0 0 |
| CUGGAGCGAUUGGCUGUG | 1.07 | 0.294 1.19 0.242 | 0.0414 0.0545 0.0159 | 0 0 0 |
| CUGGAGCGAUUGGGUGGG | 0.727 | 0.313 0.168 0.279 | 0.0827 0.0818 0.0159 | 0 0 0 |
| CUGGAGCGAUUGUAUGUG | 0.954 | 0.372 0.377 0.316 | 0.165 0.0818 0.0476 | 0 0 0.0199 |
| CUGGAGCGAUUGUCUCUG | 0.614 | 2.13 1.30 0.409 | 0.0827 0 0.0317 | 0 0 0.0199 |
| CUGGAGCGAUUGUGUCUG | 0.743 | 0.372 0.314 0.316 | 0 0.109 0.0317 | 0 0 0 |
| CUGGAGCGAUUGUUUUAG | 0.889 | 1.74 1.24 1.84 | 0.786 0.354 0.888 | 1.01 0.665 0.458 |
| CUGGAGUGAUAGAGUCUG | 0.0162 | 0 0 0.0186 | 0 0 0 | 0 0 0 |
| CUGGAUCGAUUGCCUAGG | 0.0162 | 0 0 0 | 0 0 0 | 0 0 0 |

Extract of 6 entries:

sequence	pool	IR	LM	Sys
CUGGAGUGAUAGAGUCUG	0.0162	0 0 0.0186	0 0 0	0 0 0
CUGGAGCAAUCGUUUACG	0.0162	0 0 0	0 0 0	0 0 0
CUGGAGCGAUUGGAUACG	0.905	0.372 0.251 0.298	0.0620 0 0	0 0 0
CUGGAGCGAUUGGGUGGG	0.727	0.313 0.168 0.279	0.0827 0.0818 0.0159	0 0 0
CUGGAGCGAUGGCCUUAG	0.905	3.62 1.97 1.58	0.558 0 0.935	0.772 0 0
CUGGAGCGAUUGUGUCUG	0.743	0.372 0.314 0.316	0 0.109 0.0317	0 0 0

The authors trace changes outside the varied positions to PCR and sequencing errors or to mutation in the plant; presence does not show that a variant is infectious alone. Samples held 36,693 to 63,082 reads, so the smallest values rest on one or two reads. Wild type was 10.2 per thousand in the pool and the most common sequence in every sample (inoculated region 285, 367, 312; leaf margin 785, 865, 782; systemic leaves 854, 898, 915).